Results of unrelated studies side by side (data: NIAID ChemDB).

Shared fields: growth or infection tests; species: Candida albicans; endpoint: zone

Lines come from different laboratories, so protocols vary. Zones are inhibition diameters on agar. Blank or dashed fields: not listed here.

| SMILES | dose | strain or isolate | read by | result |
|---|---|---|---|---|
| Brc1ccccc1-c1nnc(CN2CCC(n3nc4ccccc4n3)CC2)o1 | 600 µg/mL | - | - | 4.03 mm |
| CC(C)N1CCN(c2nc(Nc3ccc(C#N)c(C(F)(F)F)c3)nc(Oc3cccc4cccnc34)n2)CC1 | 100 µg/disc | MTCC 183 | agar diffusion / agar | 21 mm |
| OC(Cn1cncn1)(Cn1cncn1)c1ccc(F)cc1F | 1000 µg | - | agar diffusion | 15 mm |
| COc1ccc(N2C(=O)N(c3ccc(Oc4ccc(N5C(=N)C(=S)N(c6ccc(OC)cc6)C5=O)cc4)cc3)C(=N)C2=S)cc1 | 100000 µM | - | agar diffusion / agar | 26 mm |
| O=C(NN=Cc1ccccc1)c1snnc1C(F)(F)F | 100 µg/mL | MTCC 227 | agar diffusion / agar | 10 mm |
| Clc1ccc(C2=NN(c3ccccc3)C(c3cn(-c4ccccc4)nc3-c3ccccc3)C2)c(Cl)c1 | 500 µg/mL | MTCC 227 | - | 0 mm |
| CCOC(=O)c1ccc(-c2nn(-c3ccccc3)cc2-c2ccc([N+](=O)[O-])cc2)nc1C | 5 mg/mL | - | agar diffusion / agar | 12 mm |
| CC1(C)CC(=O)C2=C(C1)OC1=C(C(=O)CC(C)(C)C1)C2c1ccc(C2C3=C(CC(C)(C)CC3=O)OC3=C2C(=O)CC(C)(C)C3)cc1 | 140 µg/disc | ATCC 10231 | agar diffusion | 9 mm |
| Cc1ccc(S(=O)(=O)CNc2oc3[nH]c(=O)[nH]c(=O)c3c2-c2ccc(F)cc2)cc1 | 50 µg/mL | - | agar diffusion / agar | 7 mm |
| O=C1CC(c2ccccc2)CC2=C1C(c1cccc(C3C4=C(CC(c5ccccc5)CC4=O)OC4=C3C(=O)CC(c3ccccc3)C4)c1)C1=C(CC(c3ccccc3)CC1=O)O2 | 20 µg/disc | ATCC 10231 | agar diffusion | 7 mm |
| N#Cc1ccc(Nc2nc(Oc3cccc4cccnc34)nc(N3CCN(c4cccc(Cl)c4)CC3)n2)cc1C(F)(F)F | 100 µg/disc | MTCC 183 | agar diffusion / agar | 25 mm |
| O=C(c1cn2cnnc2nn1)c1nn(-c2ccccc2)cc1-c1ccc([N+](=O)[O-])cc1 | 5 mg/mL | - | agar diffusion / agar | 9 mm |
| C[C@@H]1[C@H](O)[C@@H](C)/C=C/C=C/C=C/C=C/C=C/C=C/C=C/[C@H](O[C@@H]2O[C@H](C)[C@@H](O)[C@H](N)[C@@H]2O)C[C@@H]2O[C@](O)(C[C@@H](O)C[C@@H](O)[C@H](O)CC[C@@H](O)C[C@@H](O)CC(=O)O[C@H]1C)C[C@H](O)[C@H]2C(=O)O | 100 µg/mL | MTCC 227 | agar diffusion / agar | 23.5 mm |
| CN(C)C=O | 1000 µg/mL | ATCC 2091 | - | 21 mm |
| Cc1ccc(-n2cc(-c3ccc([N+](=O)[O-])cc3)c(-c3ccn[nH]3)n2)cc1 | 2.5 mg/mL | - | agar diffusion / agar | 8 mm |
| CC1=Cc2c(CO)c(O)c(C)c(O)c2CO1 | 100 µM | ATCC 90028 | agar diffusion | 21 mm |
| Cc1ccc(N2NOC(=O)C2S(=O)(=O)Nc2ccc(-n3c(-c4ccccc4[N+](=O)[O-])nc4ccccc4c3=O)cc2)cc1 | 250 µg/mL | MTCC 227 | agar diffusion | 23 mm |
| CC1=NN(c2nnc3c(n2)Nc2ccccc2C3)C(=O)C1=C(C)C | 1000 µg/mL | ATCC 2091 | - | 24 mm |
| N=C1C(=S)N(c2ccc(Br)cc2)C(=O)N1c1ccc(Oc2ccc(N3C(=N)C(=S)N(c4ccc(Br)cc4)C3=O)cc2)cc1 | 100000 µM | - | agar diffusion / agar | 23 mm |
| COc1ccc(C2SCC(=O)N2n2c(-c3sc(NC(C)=O)nc3C)n[nH]c2=S)cc1 | 100 µg/mL | - | agar diffusion | 13 mm |
| O=[N+]([O-])c1nn2cc(-c3ccc(Cl)cc3)nc2s1 | 75 µg/mL | - | agar diffusion | 0 mm |
| Cc1ccc(-n2cc(-c3ccc([N+](=O)[O-])cc3)c(-c3ccnc4nncn34)n2)cc1 | 2.5 mg/mL | - | agar diffusion / agar | 7 mm |
| [Cl][Zn+].[O-]c1cc2ccccc2cc1/C=N/NC(=S)N/N=C/c1cc2ccccc2cc1O | 2 mg/mL | - | agar diffusion / agar | 0 mm |
| Clc1ccc(-c2cn3nc(Cl)sc3n2)cc1 | 50 µg/mL | - | agar diffusion | 12 mm |
| CC(C)=NNC(=O)c1snnc1C(F)(F)F | 100 µg/mL | MTCC 227 | agar diffusion / agar | 0 mm |
| Cc1ccc(N2NOC(=O)C2S(=O)(=O)Nc2ccc(-n3c(-c4cccc(Br)c4)nc4ccccc4c3=O)cc2)cc1 | 250 µg/mL | MTCC 227 | agar diffusion | 22 mm |
| Cc1ccc(C(CCn2ccnc2)OC(=O)c2ccc(Cl)cc2)cc1 | 1000 µg | - | agar diffusion | 14 mm |
| CCOC(=O)Cc1nnc2n1-c1nc3ccccc3nc1NN2 | 1000 µg/mL | ATCC 2091 | - | 25 mm |
| O=C(OC(CCn1ccnc1)c1ccccc1)c1ccc(F)cc1 | 1000 µg | - | agar diffusion | 16 mm |
| N#Cc1ccc(Nc2nc(Oc3cccc4cccnc34)nc(N3CCN(c4ccccc4)CC3)n2)cc1C(F)(F)F | 100 µg/disc | MTCC 183 | agar diffusion / agar | 22 mm |
| Cc1ccc(S(=O)(=O)CNc2oc3[nH]c(=O)[nH]c(=O)c3c2-c2ccc([N+](=O)[O-])cc2)cc1 | 100 µg/mL | - | agar diffusion / agar | 3 mm |
| O=C(NN=C1CCCC1)c1snnc1C(F)(F)F | 150 µg/mL | MTCC 227 | agar diffusion / agar | 0 mm |
| Clc1ccc(-c2nn(-c3ccccc3)cc2C2CC(c3ccc(-c4ccccc4)cc3)=NN2c2ccccc2)cc1 | 1000 µg/mL | MTCC 227 | - | 5 mm |
| Clc1nn2cc(-c3ccc(Br)cc3)nc2s1 | 50 µg/mL | - | agar diffusion | 14 mm |
| CC1(C)CCC2=C(C1=O)C(c1ccc(C3C4=C(CCC(C)(C)C4=O)OC4=C3C(=O)C(C)(C)CC4)cc1)C1=C(CCC(C)(C)C1=O)O2 | 20 µg/disc | ATCC 10231 | agar diffusion | 0 mm |
| CCOc1ccc(N2C(=O)N(CCCCCCN3C(=N)C(=S)N(c4ccc(OCC)cc4)C3=O)C(=N)C2=S)cc1 | 100000 µM | - | agar diffusion / agar | 21 mm |
| O=C1CCCC2=C1C(c1ccc(C3C4=C(CCCC4=O)OC4=C3C(=O)CCC4)cc1)C1=C(CCCC1=O)O2 | 140 µg/disc | ATCC 10231 | agar diffusion | 8 mm |
| O=c1oc2ccccc2cc1-c1nnc(/N=C/c2ccccc2O)o1 | 100 µg/mL | ATCC 10231 | agar diffusion | 10 mm |
| CCOc1ccc(N2C(=O)N(c3ccc(-c4ccc(N5C(=N)C(=S)N(c6ccc(OCC)cc6)C5=O)cc4OC)c(OC)c3)C(=N)C2=S)cc1 | 100000 µM | - | agar diffusion / agar | 17 mm |
| NNC(=O)c1cc2ccccc2oc1=O | 100 µg/mL | ATCC 10231 | agar diffusion | 8 mm |
| Cc1ccc(N2NOC(=O)C2S(=O)(=O)Nc2nc3c([N+](=O)[O-])cccc3s2)cc1 | 250 µg/mL | MTCC 227 | agar diffusion | 21 mm |
| Cc1ccc(S(=O)(=O)CNc2oc3[nH]c(=O)[nH]c(=O)c3c2-c2ccc(Cl)cc2)cc1 | 50 µg/mL | - | agar diffusion / agar | 0 mm |
| Cc1ccc(C(=O)OC(CCn2ccnc2)c2ccccc2)cc1 | 1000 µg | - | agar diffusion | 16 mm |
| Cc1ccc(-c2nnc(CN3CCC(n4nc5ccccc5n4)CC3)o2)cc1Br | 1200 µg/mL | - | - | 17.84 mm |
| COc1ccc(-c2nc3ccccc3c(=O)n2-c2ccc(NS(=O)(=O)C3C(=O)ONN3c3ccc(C)cc3)cc2)cc1 | 250 µg/mL | MTCC 227 | agar diffusion | 22 mm |
| O=[N+]([O-])c1nn2cc(-c3ccc(Br)cc3)nc2s1 | 75 µg/mL | - | agar diffusion | 0 mm |
| CC(=O)Nc1nc(C)c(-c2n[nH]c(=S)n2N2C(=O)CSC2c2ccccc2[N+](=O)[O-])s1 | 100 µg/mL | - | agar diffusion | 7 mm |
| O=C(OC(CCn1ccnc1)c1ccccc1)c1cccnc1 | 1000 µg | - | agar diffusion | 14 mm |
| CC1=NN(c2nnc3c(n2)Nc2ccccc2N3)C(=O)C1 | 1000 µg/mL | ATCC 2091 | - | 24 mm |
| Cc1ccc(-n2cc(-c3ccc([N+](=O)[O-])cc3)c(-c3ccon3)n2)cc1 | 2.5 mg/mL | - | agar diffusion / agar | 6 mm |
| Cc1ccc(N2NOC(=O)C2S(=O)(=O)Nc2nc3ccc(Br)cc3s2)cc1 | 250 µg/mL | MTCC 227 | agar diffusion | 18 mm |
| CC1(C)CC(=O)c2cc(C3CC(c4ccc(Cl)cc4)=NN3)[nH]c2C1 | 1000 µg/mL | ATCC 2091 | - | 24 mm |
| O=C(OC(CCn1ccnc1)c1ccc(Cl)cc1)c1ccc(Cl)cc1 | 1000 µg | - | agar diffusion | 16 mm |
| CC1(C)CCC2=C(C1=O)C(c1cccc(C3C4=C(CCC(C)(C)C4=O)OC4=C3C(=O)C(C)(C)CC4)c1)C1=C(CCC(C)(C)C1=O)O2 | 40 µg/disc | ATCC 10231 | agar diffusion | 9 mm |
| Clc1ccccc1C(c1ccccc1)(c1ccccc1)n1ccnc1 | 1000 µg/mL | ATCC 2091 | - | 40 mm |
| Clc1ccc(-c2nn(-c3ccccc3)cc2C2CC(c3ccc(Cl)cc3Cl)=NN2c2ccccc2)cc1 | 500 µg/mL | MTCC 227 | - | 2 mm |
| CC1(C)CC(=O)c2cc(-c3nnc4n3-c3nc5ccccc5nc3NN4)[nH]c2C1 | 1000 µg/mL | ATCC 2091 | - | 21 mm |
| Cc1ccc(N2NOC(=O)C2S(=O)(=O)Nc2ccc(-n3c(-c4ccccc4Cl)nc4ccccc4c3=O)cc2)cc1 | 250 µg/mL | MTCC 227 | agar diffusion | 19 mm |
| COc1ccc(-c2nn(-c3ccccc3)cc2C2CC(c3ccc(-c4ccccc4)cc3)=NN2c2ccccc2)cc1 | 1000 µg/mL | MTCC 227 | - | 0 mm |
| CC(=O)Nc1nc(C)c(-c2n[nH]c(=S)n2N2C(=O)CSC2c2cccc([N+](=O)[O-])c2)s1 | 100 µg/mL | - | agar diffusion | 12 mm |
| COc1ccc(/C=N/c2nnc(-c3cc4ccccc4oc3=O)o2)cc1OC | 100 µg/mL | ATCC 10231 | agar diffusion | 10 mm |
| CN(C)c1ccc(C=NNC(=O)c2snnc2C(F)(F)F)cc1 | 100 µg/mL | MTCC 227 | agar diffusion / agar | 0 mm |
| O=c1oc2ccccc2cc1-c1nnc(/N=C/c2ccc(O)cc2)o1 | 100 µg/mL | ATCC 10231 | agar diffusion | 9 mm |
| O=C1CSC(c2ccccc2)N1c1nnc2c(n1)[nH]c1ccccc12 | 1000 µg/mL | ATCC 2091 | - | 21 mm |
| Fc1cccc(-c2nnc(CN3CCC(n4nc5ccccc5n4)CC3)o2)c1F | 900 µg/mL | - | - | 9.86 mm |
| CC(=NNC(=O)c1snnc1C(F)(F)F)c1ccccc1 | 150 µg/mL | MTCC 227 | agar diffusion / agar | 0 mm |
| COc1cc(C2SCC(=O)N2n2c(-c3sc(NC(C)=O)nc3C)n[nH]c2=S)cc(OC)c1OC | 100 µg/mL | - | agar diffusion | 15 mm |
| N=C1C(=S)N(c2ccc(Br)cc2)C(=O)N1CCCCCCN1C(=N)C(=S)N(c2ccc(Br)cc2)C1=O | 100000 µM | - | agar diffusion / agar | 21 mm |
| CC(=O)Nc1nc(C)c(-c2n[nH]c(=S)n2N2C(=O)CSC2c2ccccc2)s1 | 100 µg/mL | - | agar diffusion | 26 mm |
| O=[N+]([O-])c1ccc(-c2nnc(CN3CCC(n4nc5ccccc5n4)CC3)o2)cc1Cl | 1200 µg/mL | - | - | 23.05 mm |

5 of the rows above, restated:

SMILES	dose	strain or isolate	read by	result
O=[N+]([O-])c1nn2cc(-c3ccc(Br)cc3)nc2s1	75 µg/mL	-	agar diffusion	0 mm
O=C(OC(CCn1ccnc1)c1ccccc1)c1cccnc1	1000 µg	-	agar diffusion	14 mm
Cc1ccc(S(=O)(=O)CNc2oc3[nH]c(=O)[nH]c(=O)c3c2-c2ccc(F)cc2)cc1	50 µg/mL	-	agar diffusion / agar	7 mm
N=C1C(=S)N(c2ccc(Br)cc2)C(=O)N1c1ccc(Oc2ccc(N3C(=N)C(=S)N(c4ccc(Br)cc4)C3=O)cc2)cc1	100000 µM	-	agar diffusion / agar	23 mm
COc1ccc(-c2nc3ccccc3c(=O)n2-c2ccc(NS(=O)(=O)C3C(=O)ONN3c3ccc(C)cc3)cc2)cc1	250 µg/mL	MTCC 227	agar diffusion	22 mm